Like-named read-outs stand apart in the source and are kept apart here.
Key:
VSV [1] = target: VSV
[2] = target: pVSV-loaded H-2 K^bm11 (mouse); assay: flow cytometry on peptide-loaded T2 K^bm11 cells
VSV [3] = target: VSV; remark: listed apart in the source

## mAb 30.5.7 (antibody)
VSV [1]
  Mean Channel Fluorescence: 334

## soluble divalent 2C TCR/Ig (from UniProt A2KF29)
[2]
  MCF: 16
VSV [3]
  Mean Channel Fluorescence: 11
